The text below walks through data of PMC4539048 (Science translational medicine, 2015).

Assay [1] has as its system P. falciparum Dd2. It counts as cell-based.
For assay [2], the system named is P. falciparum K1. The conditions noted are these: K1 strain.

`Cc1cc(Nc2ccc(S(F)(F)(F)(F)F)cc2)n2nc(C(C)(F)F)nc2n1` [DSM265, 2-(1,1-difluoroethyl)-5-methyl-[N-[4-(pentafluorosulfanyl)phenyl]1,2,4]triazolo[1,5-a]pyrimidin-7-amine]: the “drug concentration required to suppress emergence of resistant parasites” value in assay [1] (Dd2, inoculum 2×10^7 parasites) is recorded as 8 xEC50. In addition, the “EC50 increase of resistant Dd2 parasites over wild-type” value in assay [1] (parasites selected with the same drug) is 3–26 fold. The “minimum inoculum for resistance (MIR)” value in assay [2] is given as 2×10^8 parasites.
